Human monoclonal antibodies against the spike receptor-binding domain (heavy:light variable regions). IC50 against pseudoviruses bearing the spike of naturally observed variants; lower = stronger; >10 µg/ml means not reached at the top dose. No active / inactive call. The stated detection limit is 0.0005 µg/ml; values near or below 0.001 µg/ml lie at the floor of the assay.

Data on 13 molecules can be found in the supplement of paper PMC9931576.

Holding throughout (test): pseudovirus neutralization IC50; higher = weaker neutralization
The target in assay [1] is SARS-CoV-2 Omicron BA.1 spike pseudovirus. The protocol:
(§1)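 Single-round VSV luciferase pseudovirus mixed with antibody dilutions for 1 h and put on Huh-7 cells for about a day; IC50 from the dose curve.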

Assay [2] addresses SARS-CoV-2 Omicron BA.2 spike pseudovirus. The protocol:
as §1

Assay [3] concerns the target SARS-CoV-2 Omicron BA.2.75 spike pseudovirus. The protocol: as §1
For assay [4], the target named is SARS-CoV-2 Omicron BA.5 spike pseudovirus. As to the method:
as §1

Assay [5] has as its target SARS-CoV-2 Omicron BQ.1.1 spike pseudovirus. The protocol: as §1
In assay [6] the target is SARS-CoV-2 Omicron XBB spike pseudovirus. The protocol:
as §1

In assay [7] the target is SARS-CoV-2 early D614G spike pseudovirus. The protocol: as §1

B1: BD55-1456 (protein)
chain 1: EVQLVESGGGLVQPGGSLRLSCAVSGFTVSANYMSWVRQAPGKGLEWVSVIYSGGSTFYADSVKGRFTISRHNSQNTLYLQMNNLRPEDTAVYYCARDGRGDLWRHWGQGTLVTVSS
chain 2: DIQMTQSPSSLSASVGDRVTITCQASQDIRNYLNWYQQKPGKAPKLLMYEASNLETGVPSRFSGSGSGTHFTFTIISLQPEDIATYYCQQYDNLPISFGGGTKVEIK
In the case of B1, the “pseudovirus neutralization IC50” value in assay [1], in assay [2], in assay [3], in assay [4], in assay [5] and in assay [6] was more than 10 µg/mL in each case. In addition, the “pseudovirus neutralization IC50” value in assay [7] was determined as 0.00702 µg/mL.

B2: BD55-1604 (protein)
chain 1: QVQLVQSGAEVKRPGSSVKVSCKAPGGTFSRYPINWVRQAPGQGLEWMGGIIPFFGTENYAQRFQGRLTITADESTTTAYMELTSLTSEDTALYYCARVQMQIIVEPAPMRDWYFDLWGRGTLVTVSS
chain 2: QSVLTQPPSVSAAPGQKVTISCSGSGSNIGNNYVSWYQQLPGAAPKLLIYDNDQRPSGIPDRFSGSKSGTSATLGITGLQTGDEADYYCGTWDSRLSAGIFGTGTKITVL
Take B2: the “pseudovirus neutralization IC50” value in assay [1], in assay [2], in assay [3], in assay [4], in assay [5] and in assay [6] was more than 10 µg/mL in each case. In assay [7], the “pseudovirus neutralization IC50” value is more than 10 µg/mL.

B3: BD55-1723 (protein)
chain 1: QVQLIQSGAEVKKPGSSVKVSCKAAGGTFNSYTISWVRQAPGHGLEWMGKIIPILGIPNQIEKVQGRVTITADKSTGTAYMELRSLRSEDTAVYYCVGDRYSGYGPFDYWGQGTLVTVSS
chain 2: QSVLAQPPSVSGAPGQRVTISCTGSNSNIGAGYDVHWYQQFPGTAPKLLISGNINRPSGVPVRFSASKSDTSASLAITGLQAEDEADYYCQSYDSSLSGSLFGGGTKLTVL
Consider B3, for which the “pseudovirus neutralization IC50” value in assay [1] is 0.382 µg/mL; in assay [2], 0.159 µg/mL; in assay [3] it was 0.172 µg/mL; in assay [4] it was more than 10 µg/mL; in assay [5], more than 10 µg/mL; in assay [6] it was 1.17 µg/mL. In addition, the “pseudovirus neutralization IC50” value in assay [7] turned out to be 0.145 µg/mL.

B4: BD55-1421 (protein)
chain 1: EVQLVESGGGLVQPGSSLRLSCVASGFKFNDYAMHWVRQAPGKGLEWVSGINWNSGSIAYADSVKGRFTISRENAKNSLHLRMNSLRAEDTAFYYCVKDIRGSGSYFPFDYWGQGTLVTVSS
chain 2: SYVLTQPPSVSVAPGKTARITCGGNNIGSKSVHWYQQKPGQAPVLVMFDGGDRPSGIPERFSGSNSGNTATLTVSRVEAGDEAAYFCQVWDTSSNHWVFGGGTKVTVL
As for B4, the “pseudovirus neutralization IC50” value in assay [1] was more than 10 µg/mL; in assay [2], more than 10 µg/mL; in assay [3], 2.12 µg/mL; in assay [4] it was more than 10 µg/mL; in assay [5], more than 10 µg/mL; in assay [6], more than 10 µg/mL. Besides, the “pseudovirus neutralization IC50” value in assay [7] is 0.0036 µg/mL.

B5: BD55-1763 (protein)
chain 1: QVQLVQSGAEVKKPGSSVKVSCKASGGTFSSDAISWVRQVPGQGPEWMARSIPLFGLANNAQKFQGRITITADKSANIAYTELSSLRSEDTAVYYCAREGITAAGPALDSWGQGTLVTVSS
chain 2: DIQMTQSPSSLSASVGDRVTISCRASQSISTYLNWYQQKPGKAPKLLIYGASSLQSGVPSRFSGSGSGTDFTLTISSLQLEDFATYYCQQSYKTPPWTFGQGTKVEIK
With B5, the “pseudovirus neutralization IC50” value in assay [1], in assay [2], in assay [3], in assay [4], in assay [5] and in assay [6] was more than 10 µg/mL in each case. In addition, the “pseudovirus neutralization IC50” value in assay [7] was determined as 0.0299 µg/mL.

B6: BD-598 (protein)
chain 1: EVQLVESGGGLIQPGGSLRLSCAASGLTVSSNYMSWVRQAPGKGLEWVSVIYSGGSTYYADSVKGRFTISRDNSTNTLYLQMNSLRAEDTAVYYCARDLDYYGMDVWGQGTTVTVSS
chain 2: DIQLTQSPSSLSASVGDRVTITCRASQGISSYLAWYQQKPGKAPNLLIYAASTLQSGVPSRFSGSGSGTDFTLTISSLQPEDFATYYCQHLNSYPPITFGQGTRLEIK
For B6, the “pseudovirus neutralization IC50” value in assay [1], in assay [2], in assay [3], in assay [4], in assay [5] and in assay [6] was more than 10 µg/mL each time. Moreover, the “pseudovirus neutralization IC50” value in assay [7] was determined as 0.0769 µg/mL.

B7: BD55-6730 (protein)
chain 1: QLQLQESGSGLVKPSQTLSLTCAVSGGSISSGAYSWSWIRQPPGKGLEWIGYIHHSGNTDYSPSLKSRVTISVDRSKNQFSLKLTSVTAADTAVYYCAREGLQLWPNAFDIWGQGTMVTVSS
chain 2: DIQLTQSPSLLSASVGDRVTITCRASQDISSFLAWYQQKPGKAPKLLIYAASTLQSGVPSRFSGSGSGTEFTLTISSLQPEDFATYYCQQLNSYTTFGPGTKVDFK
Turning to B7, the “pseudovirus neutralization IC50” value in assay [1], in assay [2], in assay [3], in assay [4], in assay [5] and in assay [6] was more than 10 µg/mL each time. Further, the “pseudovirus neutralization IC50” value in assay [7] is more than 10 µg/mL.

B8: BD55-1376 (protein)
chain 1: QVQLVQSGAEVKKPGASVKVSCKASGYPFSYYTIHWVRQAPGQRLEWMGWINSGNGNTKYSQKFQGRVTITRDTSANTAYMELSGLTSEDTAFYYCAKVDSSGPAWFDPWGQGTLVTVSS
chain 2: SYVLTQPPSVSVAPGKTARITCGGNNIGGKSVHWYQQKPGQAPILVIYYDSDRPSGIPERFSGSNSGNTATLTISRVEAGDEADYSCQVWDPSSDHPVFGGGTKLTVL
For B8, the “pseudovirus neutralization IC50” value in assay [1] is 0.118 µg/mL; in assay [2], 0.151 µg/mL; in assay [3], 0.192 µg/mL; in assay [4], more than 10 µg/mL; in assay [5], more than 10 µg/mL; in assay [6], more than 10 µg/mL. The “pseudovirus neutralization IC50” value in assay [7] worked out at 0.161 µg/mL.

B9: BD55-1502 (protein)
chain 1: QVQLQESGPGLMKPSQTLSLTCTVSGGSFSSGGSYWYWIRQHPGKGLEWIGYISYSGSTYYNPSLRSRLTISVDTSKNQFSLRLSSVTAADTALYYCARASGFGELGLDYWGQGTLVTVSS
chain 2: DIQLTQSPSFLSASVGDRVTITCRASQGISSYLAWYQQKPGKAPKLLIYAASTLQSGVPSRFSGSGSGTEFTLTISSLQPEDFATYYCQQLNSYSITFGQGTRLEIK
As to B9, the “pseudovirus neutralization IC50” value in assay [1], in assay [2], in assay [3], in assay [4], in assay [5] and in assay [6] was more than 10 µg/mL each time. For the same molecule, in assay [7], the “pseudovirus neutralization IC50” value was determined as 0.00996 µg/mL.

B10: BD55-1575 (protein)
chain 1: EGELVESGGGLIHPGGSLRLSCAASELVVSSNYMSWVRQAPGKGLEWVSVIYPGGSTFYADFVKGRFTISRDNSKNTLYLQMNSLRPDDTAMYYCAREALAKGTKVGATDFDYWGPGTRVTVSS
chain 2: DIQMTQSPSSLSASVGDRVTITCRASESISTSLNWYQQQPGKAPQLLIYAASGLHTGVPSRFSGSGSGTDFTLTISSLQPEDFATYYCQQSYSTPPYTFGQGTKLEIK
For the molecule B10, the “pseudovirus neutralization IC50” value in assay [1] was 0.181 µg/mL; in assay [2], 0.263 µg/mL; in assay [3], 0.418 µg/mL; in assay [4], 0.0178 µg/mL; in assay [5], 0.369 µg/mL; in assay [6], more than 10 µg/mL. Also, the “pseudovirus neutralization IC50” value in assay [7] was 0.0126 µg/mL.

B11: BD55-1508 (protein)
chain 1: EVQLVESGGGLVRPGGSLRLSCAASGFTFSSYWVSWVRQAPGKGLEWVANINHDGSEKYYLDSVKGRFTISRDNAKHSLYLQMNSLRAEDTAVYYCASHSQARPYFYFYMDVWGKGTTVTVSS
chain 2: DIVMTQSPLSLPVTPGEPASISCRSSQSLLHSNGYNYLDWFLQKPGQSPQLLMYMGSNRASGVPDRFSGSGSGTDFTLKISRVEAEDVGVYYCMQGLQTPFTFGQGTKLEIK
Regarding B11, the “pseudovirus neutralization IC50” value in assay [1], in assay [2], in assay [3], in assay [4], in assay [5] and in assay [6] was more than 10 µg/mL each time. Further, the “pseudovirus neutralization IC50” value in assay [7] stood at 1.43 µg/mL.

B12: BD55-1412 (protein)
chain 1: EVQLVESGGGLVQPGGSLRLSCAASGFTFNAYWMNWVRQAPGKGLEWVANVKLDGSEKYYMDSVKGRFAISRDNTKNLLYLQMNRLRTEDTAVYYCARATYYYGDFDHWGQGALVTVSS
chain 2: NFMLTQPHSVSESPGKTITISCTRSSGSIAINYVQWYQQRPGSAPTTVIYEDNQRPSGVPDRFSGSIDSSSNSASLTISGLKTEDEADYYCQSYDGSNRYVFGTGTKVTV
For B12, the “pseudovirus neutralization IC50” value in assay [1] was 2.71 µg/mL; in assay [2], more than 10 µg/mL; in assay [3], more than 10 µg/mL; in assay [4], more than 10 µg/mL; in assay [5] it was more than 10 µg/mL; in assay [6], more than 10 µg/mL. In assay [7], the “pseudovirus neutralization IC50” value was 0.259 µg/mL.

B13: BD55-1374 (protein)
chain 1: QVTLRESGPALVRPTQTLTLTCTFSGFSLTTRGLCVSWIRQSPGKALEWLARIDWDDDKYYSTSLRTRLTISKDTSKNQVVLTMTNVDTVDAATYFCARMTPAGPALDYWGQGTLVTVSS
chain 2: DIQMTQSPSSLSASVGDRVTITCRASQSIRTYLNWYQQRPGKAPELLIFAASTLRSGVPSRFSGSGSGTDFTLTITGLQPEDFATYHCQQSFTTPRTFGQGTKVEIK
On to B13, for which the “pseudovirus neutralization IC50” value in assay [1], in assay [2], in assay [3], in assay [4], in assay [5] and in assay [6] was more than 10 µg/mL throughout. The “pseudovirus neutralization IC50” value in assay [7] stood at 0.0285 µg/mL.
